PubChem BioAssay AID624099 – ICCB-Longwood | 2012
Test: 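Human genes that papillomavirus E2 requires to repress the HPV18 LCR promoter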 (primary screen). Cell system: human C33A cervical carcinoma cells (HPV-negative) stably expressing BPV1 E2 and an HPV18 LCR luciferase reporter. Reagent: siRNA pool against human genes, 40 nM. Timing: 72 h. Read-out: 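HPV18 LCR reporter light per well, converted to plate-wise z-scores that exclude control wells, and averaged over triplicate plates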. Reading the numbers: mean z-score and z-score: higher = stronger reporter signal, weaker E2 silencing. Active means: 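Hit if mean z-score reaches 2 and two or more of three replicate z-scores also reach 2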.
The whole screen tested about 21,000 reagents; shown is a random part of them. Over the whole deposit, 497 (2.4%) are marked active. 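Higher z means weaker E2 silencing; only reporter increases were scored, and knock-downs that hurt cell survival may mask genuine repressor factors.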 Unmarked entries are inactive.

The first 2 entries, to show the layout:
PHF21A (PHD finger protein 21A)
- mean z-score: 0.14
- z-score, replicate A: 0.34
- z-score, replicate B: 0.08
- z-score, replicate C: -0.01

PTMA (prothymosin alpha)
- mean z-score: 0.34
- z-score, replicate A: 0.48
- z-score, replicate B: 0.12
- z-score, replicate C: 0.43

Main list, repeating the preview:
PHF21A (PHD finger protein 21A)
- mean z-score: 0.14
- z-score, replicate A: 0.34
- z-score, replicate B: 0.08
- z-score, replicate C: -0.01

PTMA (prothymosin alpha)
- mean z-score: 0.34
- z-score, replicate A: 0.48
- z-score, replicate B: 0.12
- z-score, replicate C: 0.43

ARSG (arylsulfatase G)
- mean z-score: 0.44
- z-score, replicate A: 0.79
- z-score, replicate B: 0.51
- z-score, replicate C: 0.01

LOC391092 (PRAME family member 17 pseudogene)
- mean z-score: -0.59
- z-score, replicate A: -0.36
- z-score, replicate B: -0.53
- z-score, replicate C: -0.87

LINC02609 (long independently transcribed non-coding RNA 2609)
- mean z-score: 0.53
- z-score, replicate A: -0.26
- z-score, replicate B: 0.96
- z-score, replicate C: 0.9

SKIC8 (SKI8 subunit of superkiller complex)
- mean z-score: 0.2
- z-score, replicate A: 0.15
- z-score, replicate B: 0.36
- z-score, replicate C: 0.09

CLECL1 (C-type lectin like 1)
- mean z-score: -0.82
- z-score, replicate A: -0.64
- z-score, replicate B: -0.7
- z-score, replicate C: -1.14

UBE2U (ubiquitin conjugating enzyme E2 U)
- mean z-score: -0.16
- z-score, replicate A: -0.58
- z-score, replicate B: 0.72
- z-score, replicate C: -0.62

MED21 (mediator complex subunit 21)
- mean z-score: -3.04
- z-score, replicate A: -2.85
- z-score, replicate B: -3.31
- z-score, replicate C: -2.96

LINC00939 (long independently transcribed non-coding RNA 939)
- mean z-score: 0
- z-score, replicate A: 0.01
- z-score, replicate B: 0.12
- z-score, replicate C: -0.13

CACNA1I (calcium voltage-gated channel subunit alpha1 I)
- mean z-score: 0.13
- z-score, replicate A: 0.29
- z-score, replicate B: 0.09
- z-score, replicate C: 0.01

LOC389749 (retired record)
- mean z-score: -2.01
- z-score, replicate A: -2.34
- z-score, replicate B: -1.91
- z-score, replicate C: -1.76

CALHM2 (calcium homeostasis modulator family member 2)
- mean z-score: 0.7
- z-score, replicate A: 0.9
- z-score, replicate B: 0.93
- z-score, replicate C: 0.28

LOC400552 (retired record)
- mean z-score: 0.53
- z-score, replicate A: 0.15
- z-score, replicate B: 1.07
- z-score, replicate C: 0.39

LSM4
- mean z-score: -1.23
- z-score, replicate A: -1.32
- z-score, replicate B: -1.36
- z-score, replicate C: -1

TIMM21 (translocase of inner mitochondrial membrane 21)
- mean z-score: -0.78
- z-score, replicate A: -0.8
- z-score, replicate B: -0.85
- z-score, replicate C: -0.71

ARPIN (actin related protein 2/3 complex inhibitor)
- mean z-score: 0.54
- z-score, replicate A: 0.45
- z-score, replicate B: 0.73
- z-score, replicate C: 0.44

PBX1 (PBX homeobox 1)
- mean z-score: 1.49
- z-score, replicate A: 1.29
- z-score, replicate B: 1.31
- z-score, replicate C: 1.85

ACAD10 (acyl-CoA dehydrogenase family member 10)
- mean z-score: -0.91
- z-score, replicate A: -0.99
- z-score, replicate B: -0.85
- z-score, replicate C: -0.9

ITIH3 (inter-alpha-trypsin inhibitor heavy chain 3)
- mean z-score: -0.55
- z-score, replicate A: -0.7
- z-score, replicate B: -0.81
- z-score, replicate C: -0.15

AMELY (amelogenin Y-linked)
- mean z-score: 1.18
- z-score, replicate A: 0.97
- z-score, replicate B: 1.29
- z-score, replicate C: 1.29
